Measured values taken from PMC6204821, “Inhibitory effect of microalgae and cyanobacteria extracts on influenza virus replication and neuraminidase activity” (PeerJ, 2018).

Molecular target: neuraminidase of B/Perth/211/2001 Yam (D197E) (Influenza B virus, UniProt Q3S340, D197E)
Assay type: biochemical
Settings: read-out: IC50 NA B/Perth/211/2001 Yam (D197E)

CCC(CC)O[C@@H]1C=C(C(=O)O)C[C@H](N)[C@H]1NC(C)=O [OST-car, Oseltamivir carboxylate]
IC50: 10 ± 2 nM
